Reference: patent US20120003661A1, “METHODS AND DEVICES FOR THE SELECTIVE DETECTION OF MICROORGANISMS” (C3 JIAN, INC., priority 2010, published 2012)

Tested on: S. mutans
Test: Selective permeabilization by STAMP, luciferase luminescence detection
Type: cell-based, Streptococcus mutans
Conditions: 10 minutes at room temperature

TFFRLFNRSFTQALGKGGGKNLRIIRKGIHIIKKY [C16G2]
ability of the assay to detect S. mutans in saliva (S. mutans spiked in fresh unfiltered unstimulated saliva, luciferase luminescence (FIG. 4)): capable of quantifying S. mutans spiked in a fresh unfiltered saliva sample
detection level of the assay (cultured S. mutans serially diluted in growth media, luciferase luminescence (FIG. 3)): 10^4 cells/ml
